{"source": "patent EP4314010B1", "about": "“MODIFIED PEPTIDOMIMETICS AND METHODS OF USE” (dated 2026)", "test_system": "SARS-CoV-2 S1 pseudovirus", "assay": "SARS-CoV-2 S1 pseudovirus infection of ACE2-expressing HEK293T cells (DsRed)", "conditions": "ACE2-overexpressing HEK293T cells", "method": "During infection, increased SOCE and Orai1 activity leads to greater phosphorylation of Ca^2+-sensitive kinases (e.g., calcineurin) and activation of transcription factors (e.g., NFAT) leading to a pro-inflammatory response. […] The results were normalized to the baseline. Thapsigargin (Tg) at 1 µM was used as control. The inhibition of Ca^2+ release after scaffold peptide (ELD100; reference) addition is shown for comparison. […] The results were normalized to the baseline. Thapsigargin (Tg) at 1 µM was used as control. The inhibition of Ca^2+ release after ELD100 (reference) addition is shown for comparison. […] The results were normalized to the baseline. Thapsigargin (Tg) at 1 µM was used as control. The inhibition of Ca^2+ release after ELD100 (reference) addition is shown for comparison. […] The results were normalized to the baseline. Thapsigargin (Tg) at 1 µM was used as control. The inhibition of Ca^2+ release after ELD100 (reference) addition is shown for comparison. […] 1 h later, thapsigargin was added and the change in Fluo-4 fluorescence was measured. […] HEK293T cells were transfected with anti-Orai1 shRNA for 48 h and the change in Fluo4 fluorescence was measured. […] FIG. 16G panels B and C show plots showing fluorescence intensities of Orai1 in macrophages and neutrophils, respectively. *** p<0.001 different as indicated. […]"}
{"substance": "n-VHDIVNMLIHG-n", "values": [{"measurement": "pseudovirus infection (DsRed fluorescence)", "value": "inhibited viral replication"}]}
{"substance": "a-HDIVNMLIH-a", "values": [{"measurement": "pseudovirus infection (DsRed fluorescence)", "value": "inhibited viral replication"}]}
